# Like-named read-outs stand apart in the source and are kept apart here.
# The chains behind the UniProt entries cited, without tags or fusion partners. Residues count along the entry.
# UniProt Q6FWV7, 100-228 limits assumed: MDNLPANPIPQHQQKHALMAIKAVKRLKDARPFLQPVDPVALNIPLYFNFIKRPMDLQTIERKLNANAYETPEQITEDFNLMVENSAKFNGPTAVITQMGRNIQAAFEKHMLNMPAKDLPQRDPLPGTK
# UniProt Q6FWV7, 269-391 limits assumed: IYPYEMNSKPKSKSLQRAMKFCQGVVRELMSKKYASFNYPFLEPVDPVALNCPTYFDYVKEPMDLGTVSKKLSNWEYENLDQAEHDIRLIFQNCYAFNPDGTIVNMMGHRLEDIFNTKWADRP
# Legend:
# CgBdf1 BD1 [1] = conditions: for Normalized (0 to 100%), WT, Average / Normalized (0 to 100%), YF mutant, Average: normalized peptide array signal; for Raw data, WT, Left / Raw data, YF mutant, Left: left replicate; for Raw data, WT, Rigt / Raw data, YF mutant, Right: right replicate
# CgBdf1 BD1 [2] = target: CgBdf1 BD1 (Candida glabrata, UniProt Q6FWV7); assay: HTRF assay, inhibition of H4ac4 peptide binding; design: species or system C. glabrata; conditions: read-out: IC50 CgBdf1 BD1; Table S3; estimate, preliminary single-replicate HTRF assay
# CgBdf1 BD2 [3] = target: CgBdf1 BD2 (Candida glabrata, UniProt Q6FWV7); conditions: read-out: IC50 CgBdf1 BD2; Table S3; estimate, preliminary single-replicate HTRF assay
# CgBdf1 BD2 [4] = conditions: for Normalized (0 to 100%), WT, Average / Normalized (0 to 100%), YF mutant, Average: normalized peptide array signal; for Raw data, WT, Left / Raw data, YF mutant, Left: left replicate; for Raw data, WT, Rigt / Raw data, YF mutant, Right: right replicate
# [5] = CgBdf1 BD1 WT, peptide array signal
# [6] = CgBdf1 BD1 YF mutant, peptide array signal
# [7] = CgBdf1 BD2 WT, peptide array signal
# [8] = CgBdf1 BD2 YF mutant, peptide array signal
Compound,"Normalized (0 to 100%), WT, Average (CgBdf1 BD1 [1]; CgBdf1 BD1 WT)","Raw data, WT, Left (CgBdf1 BD1 [1]; [5])","Raw data, WT, Rigt (CgBdf1 BD1 [1]; [5])","Normalized (0 to 100%), YF mutant, Average (CgBdf1 BD1 [1]; CgBdf1 BD1 YF mutant)","Raw data, YF mutant, Left (CgBdf1 BD1 [1]; [6])","Raw data, YF mutant, Right (CgBdf1 BD1 [1]; [6])",IC50 (CgBdf1 BD1 [2]),IC50 (CgBdf1 BD2 [3]),"Normalized (0 to 100%), WT, Average (CgBdf1 BD2 [4]; CgBdf1 BD2 WT)","Raw data, WT, Left (CgBdf1 BD2 [4]; [7])","Raw data, WT, Rigt (CgBdf1 BD2 [4]; [7])","Normalized (0 to 100%), YF mutant, Average (CgBdf1 BD2 [4]; CgBdf1 BD2 YF mutant)","Raw data, YF mutant, Left (CgBdf1 BD2 [4]; [8])","Raw data, YF mutant, Right (CgBdf1 BD2 [4]; [8])",other results
COc1ccc(-c2nc3cnccn3c2Nc2ccc(Br)cc2)cc1OC,1.15%,0.01292,0.01008,0.447%,0.005861,0.003085,12 µM,> 20 µM,1%,0.01154,0.009357,0.905%,0.01503,0.003067,
CC(=O)Nc1ccc(CCc2nc3ccc(C(=O)NCc4ccc(C)o4)cc3[nH]2)cc1,1.83%,0.01323,0.02331,0.339%,0.003701,0.003085,5.9 µM,17 µM,0.764%,0.00811,0.007174,1.18%,0.01718,0.006442,
CCC(=O)Nc1ccc(CCc2nc3ccc(C(=O)NCCC4=CCCCC4)cc3[nH]2)cc1,7%,0.04348,0.1014,0.308%,0.004318,0.001851,> 20 µM,> 20 µM,0.53%,0.004367,0.006238,0.752%,0.01135,0.003681,
CC(=O)c1cccc(NC(=O)Cn2cccc2-c2nc(-c3ccc4c(c3)OCO4)no2)c1,,,,,,,> 20 µM,> 20 µM,,,,,,,"Raw data, WT (CgBdf1 BD1 [1]; peptide array signal, CgBdf1 BD1 WT, first replicate column): 0.01134; Normalized (0 to 100%), WT (CgBdf1 BD1 [1]; peptide array signal, CgBdf1 BD1 WT, mean of the two raw values): 2.76%; Raw data, WT (CgBdf1 BD1 [1]; peptide array signal, CgBdf1 BD1 WT, second replicate column): 0.04379; Raw data, YF mutant (CgBdf1 BD1 [1]; peptide array signal, CgBdf1 BD1 YF mutant, first replicate column): 0.003085; Normalized (0 to 100%), YF mutant (CgBdf1 BD1 [1]; peptide array signal, CgBdf1 BD1 YF mutant, mean of the two raw values): 0.308%; Raw data, YF mutant (CgBdf1 BD1 [1]; peptide array signal, CgBdf1 BD1 YF mutant, second replicate column): 0.003085; Raw data, WT (CgBdf1 BD2 [4]; peptide array signal, CgBdf1 BD2 WT, first replicate column): 0.004679; Normalized (0 to 100%), WT (CgBdf1 BD2 [4]; peptide array signal, CgBdf1 BD2 WT, mean of the two raw values): 0.608%; Raw data, WT (CgBdf1 BD2 [4]; peptide array signal, CgBdf1 BD2 WT, second replicate column): 0.007486; Raw data, YF mutant (CgBdf1 BD2 [4]; peptide array signal, CgBdf1 BD2 YF mutant, first replicate column): 0.01043; Normalized (0 to 100%), YF mutant (CgBdf1 BD2 [4]; peptide array signal, CgBdf1 BD2 YF mutant, mean of the two raw values): 0.69%; Raw data, YF mutant (CgBdf1 BD2 [4]; peptide array signal, CgBdf1 BD2 YF mutant, second replicate column): 0.003374"
COC(=O)c1ccccc1Nc1c(-c2ccc(O)cc2)nc2cnccn12,2.3%,0.006301,0.0397,0.293%,0.002776,0.003085,> 20 µM,> 20 µM,0.312%,0,0.006238,0.675%,0.009509,0.003988,
COCCN1C(=O)c2ccccc2C(C(=O)Nc2cccc(NC(C)=O)c2)C12CCCCC2 (stereo not shown),1.5%,0.004411,0.02552,0.416%,0.005552,0.002776,19 µM,> 20 µM,0.639%,0.006862,0.005926,0.798%,0.01319,0.002761,
CC(=O)Nc1ccc(NC(=O)Cn2ccn3nc(-c4ccc(F)cc4)c(CO)c3c2=O)cc1,1.26%,0.005356,0.01985,0.308%,0.003085,0.003085,> 20 µM,,0.421%,0.004055,0.004367,0.567%,0.007362,0.003988,
